# PSTVd loop 27 mutant pool in Nicotiana benthamiana

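Three N. benthamiana plants were inoculated with the whole mutant pool. Samples came from the inoculated region at 5 days, the leaf margin at 10 and upper systemic leaves at 12.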

The pool varies loop 27 of the PSTVd intermediate strain in the pattern UNNNNA; wild type is UUUUCA (5' to 3', with the closing base pair).

Numbers give reads per thousand; 0 = not seen among the reads, higher = more abundant. Each site shows the three plants. "Pool" is the share in the plasmid pool used as inoculum, on the same scale. The inoculated region was read from the minus strand, the other sites from the plus strand.

| sequence | pool | inoculated region | leaf margin | systemic leaves |
|---|---|---|---|---|
| UUCAUA | 2.92 | 2.01 1.70 1.30 | 0.0333 0.0605 0.233 | 0 0.0153 0.0197 |
| UUCCAA | 1.36 | 0.511 0.851 0.529 | 0 0 0 | 0 0 0 |
| UUCCCA | 0.937 | 1.09 1.08 0.926 | 0.666 0.0907 0 | 0.0322 0 0 |
| UUCCGA | 0.747 | 0.388 0.507 0.548 | 0 0 0 | 0 0 0 |
| UUCCUA | 3.56 | 1.55 1.34 1.21 | 0.0333 0.121 0.258 | 0 0.0306 0 |
| UUCGAA | 2.49 | 1.78 1.65 1.47 | 0 0.151 0 | 0.0161 0.122 0.0393 |
| UUCGAC | 0.598 | 0.265 0.360 0.302 | 0 0.363 0 | 0 0 0.0197 |
| UUCGCA | 3.06 | 1.45 1.88 1.72 | 0.0666 0.0605 0.155 | 0 0.0459 0.0197 |
| UUCGGA | 2.27 | 1.80 1.70 1.72 | 0.866 0.121 0.284 | 0 0.168 0.0197 |
| UUCGUA | 5.69 | 3.58 4.03 4.29 | 0.0333 0.151 0.0258 | 0.0161 0.0459 0.0590 |
| UUCUAA | 3.75 | 2.89 3.47 2.61 | 0.0333 0.151 0.0517 | 0.0161 0.0459 0.0984 |
| UUCUCA | 2.32 | 11.0 9.08 12.8 | 1.03 0.423 0.982 | 0.225 0.214 0.315 |
| UUCUGA | 2.57 | 5.33 3.81 4.37 | 0.300 0.212 0 | 0.0161 0.107 0.0984 |
| UUCUUA | 6.32 | 4.60 5.45 4.56 | 0.200 0.514 0.310 | 0.0804 0.138 0.197 |
| UUGAAA | 2.73 | 2.54 2.85 2.85 | 0.833 0.181 0.0775 | 0.0482 0.0611 0.0787 |
| UUGACA | 1.30 | 1.66 2.08 2.65 | 0.733 0.151 0.0258 | 0.113 0 0.0787 |
| UUGAGA | 5.43 | 4.39 4.43 4.14 | 0.366 0.695 0.0775 | 0.0322 0.153 0.0787 |
| UUGAUA | 4.37 | 5.98 6.46 7.37 | 1.23 0.484 0.0258 | 0.193 0.260 0.118 |
| UUGCAA | 4.21 | 1.89 2.09 1.13 | 0.0333 0.484 0.0258 | 0 0.0764 0.0197 |
| UUGCCA | 1.47 | 0.705 0.638 0.454 | 0.0333 0.0605 0.0258 | 0.0482 0.0153 0.0393 |
| UUGCGA | 5.15 | 3.09 3.89 3.33 | 0.300 0.212 0.568 | 0.0161 0.0764 0.0590 |
| UUGCUA | 3.56 | 3.99 4.17 4.65 | 0.433 0.0907 0.103 | 0.0322 0.413 0.0393 |
| UUGGAA | 9.78 | 8.27 9.05 8.64 | 2.77 0.484 1.11 | 0.0965 0.260 0.157 |
| UUGGCA | 3.90 | 2.10 2.52 1.81 | 0.500 0.423 0.439 | 0.0322 0.0764 0.0393 |
| UUGGGA | 8.04 | 2.19 2.90 1.70 | 0.100 0.574 0.413 | 0 0.0153 0.0197 |
| UUGGUA | 9.11 | 11.6 11.4 12.7 | 4.90 0.574 0.982 | 0.113 0.260 0.177 |
| UUGGUC | 0.0136 | 0 0 0 | 0 0 0 | 0 0 0 |
| UUGGUG | 0.0136 | 0 0 0 | 0 0 0 | 0 0 0 |
| UUGUAA | 5.09 | 12.4 14.3 13.1 | 3.96 1.03 0.362 | 0.418 1.02 0.236 |
| UUGUCA | 4.81 | 10.1 11.1 12.1 | 5.30 5.08 1.55 | 167 3.58 9.19 |
| UUGUGA | 4.33 | 5.91 5.88 5.63 | 1.07 0.423 0.0517 | 0.0643 0.596 1.99 |
| UUGUUA | 8.68 | 21.5 21.3 23.3 | 6.93 4.66 1.76 | 0.917 158 2.91 |
| UUUAAA | 5.55 | 1.83 2.60 1.95 | 0.433 0.574 0.543 | 0.0482 0.153 0.334 |
| UUUACA | 0.136 | 0.141 0.213 0.113 | 0.866 0.726 0.388 | 0.482 0.718 0.374 |
| UUUACC | 0.0136 | 0 0 0 | 0 0 0 | 0 0 0 |
| UUUACG | 0.0136 | 0 0 0 | 0.0333 0 0 | 0 0 0 |
| UUUAGA | 5.23 | 4.22 4.91 4.91 | 0.566 0.514 0.439 | 0.0643 0.0764 10.9 |
| UUUAUA | 4.25 | 7.04 6.91 8.51 | 0.800 0.272 0.0517 | 0.0804 0.183 0.0787 |

Extract of 2 entries:

sequence	pool	inoculated region	leaf margin	systemic leaves
UUCCCA	0.937	1.09 1.08 0.926	0.666 0.0907 0	0.0322 0 0
UUCGGA	2.27	1.80 1.70 1.72	0.866 0.121 0.284	0 0.168 0.0197

With 30,013-65,426 reads a sample, very low values are single reads. Sequences that differ at fixed positions probably stem from PCR or sequencing errors, and defective variants can be carried along by functional ones. Wild type was 39.4 per thousand in the pool and the most common sequence in every sample (inoculated region 155, 124, 130; leaf margin 823, 907, 920; systemic leaves 805, 787, 933).

The measurements come from Wu et al. 2024 (doi:10.1371/journal.ppat.1012142).